Data taken from patent publication US20050080570A1, “Predicting probabilities of achieving a desired minimum trough level for an anti-infective agent” (priority 2003, published 2005).

How the values were obtained:
[1] = average value across the studies
[2] = 100% human serum; fourth study; cited from earlier work

Protein-binding correction factor, Average [1]: 6.8
Substance: Amprenavir or fos-Amprenavir [APV]
Protein-binding correction factor, 100% HS [2]: 10.5
